Ki data for four compounds are collected here from BindingDB's records for doi:10.1046/j.1432-1033.2003.03533.x (Uppsala University, 2003).

Molecules are shown by their SMILES.

In this assay the target is T1, Dimer of Gag-Pol polyprotein [489-587] (Human immunodeficiency virus 1, UniProt P12497).
T1 construct: 489-587
The assay is described as follows: Enzyme Inhibition Assay. The conditions noted are these: pH 5; 30 °C.
As to `O=C(NCc1ccccc1)[C@H](OCc1ccccc1)[C@H](O)[C@@H](O)[C@@H](OCc1ccccc1)C(=O)N[C@H]1c2ccccc2C[C@H]1O` [(2R,3R,4R,5R)-N-benzyl-2,5-bis(benzyloxy)-3,4-dihydroxy-N'-[(1S,2R)-2-hydroxy-2,3-dihydro-1H-inden-1-yl]hexanediamide], the Ki is 0.1 nM.
In the case of `CNC(=O)[C@@H](NC(=O)[C@H](OCc1ccc(-c2cccnc2)cc1)[C@H](O)[C@@H](O)[C@@H](OCc1ccc(-c2cccnc2)cc1)C(=O)N[C@H](C(=O)NC)C(C)C)C(C)C` [N1,N6-Bis[(1S)-2-methyl-1-(methylcarbamoyl)propyl]-(2R,3R,4R,5R)-2,5-bis[4-(3-pyridyl)benzyloxy]-3,4-dihydroxyhexanediamide] it was 0.1 nM; in that of `CNC(=O)[C@@H](NC(=O)[C@H](OCc1ccc(-c2ccsc2)cc1)[C@H](O)[C@@H](O)[C@@H](OCc1ccc(-c2ccsc2)cc1)C(=O)N[C@H](C(=O)NC)C(C)C)C(C)C` [N1,N6-Bis[(1S)-2-methyl-1-(methylcarbamoyl)propyl]-(2R,3R,4R,5R)-2,5-bis[4-(3-thienyl)benzyloxy]-3,4-dihydroxyhexanediamide], 1.2 nM.
In the case of `O=C(N[C@H]1c2ccccc2C[C@H]1O)[C@H](OCc1ccccc1)[C@H](O)[C@@H](O)[C@@H](OCc1ccccc1)C(=O)N[C@H]1c2ccccc2C[C@H]1O` [symmetric/asymmetric inhibitor 2], affinity was put at a Ki of 0.2 nM. Against the preceding compound, the Ki is about 6-fold lower.

Usually Ki stands for the equilibrium dissociation constant of an inhibitor or competing ligand from its target. A high value points to a looser hold on the target.
